Pooled drug test results. Numbers come from NIAID ChemDB, via PubChem.

All rows: tests in culture; species: Mycobacterium avium complex; measure: MIC

Rows are shuffled and stem from different studies. Blank or dashed fields: not listed here.

smiles | strain | method | value
Clc1cccc(CSc2nc3ccccc3[nH]2)c1 | MY330/88 |  | >62 µM
NC[C@H]1O[C@H](O[C@H]2[C@H](O)[C@@H](O[C@H]3O[C@H](CO)[C@@H](O)[C@H](N)[C@H]3O)[C@H](N)C[C@@H]2N)[C@H](O)[C@@H](O)[C@@H]1O | Isolate C-21 |  | 200 µg/mL
NC[C@H]1O[C@H](O[C@H]2[C@H](O)[C@@H](O[C@H]3O[C@H](CO)[C@@H](O)[C@H](N)[C@H]3O)[C@H](N)C[C@@H]2N)[C@H](O)[C@@H](O)[C@@H]1O | TMC 1403 |  | 0.39 µg/mL
CCn1cc(C(=O)O)c(=O)c2cc(F)c(N3CCN(C)CC3)cc21 | CIPT 14031001 |  | 10 µg/mL
CC(C)N=c1cc2n(-c3ccc(Cl)cc3)c3ccccc3nc-2cc1Nc1ccc(Cl)cc1 | 1110/HIV- |  | 0.12 µg/mL
NCCC[C@H](N)CC(=O)N[C@H]1CNC(=O)[C@H]([C@H]2C[C@H](O)NC(N)=N2)NC(=O)/C(=C/NC(N)=O)NC(=O)[C@H](CO)NC(=O)[C@H](CO)NC1=O | Isolate 135 |  | 100 µg/mL
CCCCCCCCCCCCCCCCSc1nc2ccccc2[nH]1 | MY330/88 |  | >500 µM
NC[C@H]1O[C@H](O[C@H]2[C@H](O)[C@@H](O[C@H]3O[C@H](CO)[C@@H](O)[C@H](N)[C@H]3O)[C@H](N)C[C@@H]2N)[C@H](O)[C@@H](O)[C@@H]1O | N-325 (HIV-) |  | 4 µg/mL
NC[C@@H]1O[C@H](O[C@H]2[C@@H](O)[C@H](O[C@@H]3[C@@H](O)[C@H](N)C[C@H](N)[C@H]3O[C@H]3O[C@H](CO)[C@@H](O)[C@H](O)[C@H]3N)O[C@@H]2CO)[C@H](N)[C@@H](O)[C@@H]1O | SK46/HIV+ |  | 6.25 µg/mL
O=C(O)c1cn(C2CC2)c2c(F)c(N3CC4CC3CN4)c(F)cc2c1=O | PI12/39 |  | 2 µg/mL
NC[C@H]1O[C@H](O[C@H]2[C@H](O)[C@@H](O[C@H]3O[C@H](CO)[C@@H](O)[C@H](N)[C@H]3O)[C@H](N)C[C@@H]2N)[C@H](N)[C@@H](O)[C@@H]1O | TMC 1467 |  | 0.05 µg/mL
CC[C@H]1OC(=O)[C@H](C)[C@@H](O[C@H]2C[C@@](C)(OC)[C@@H](O)[C@H](C)O2)[C@H](C)[C@@H](O[C@@H]2O[C@H](C)C[C@H](N(C)C)[C@H]2O)[C@](C)(OC)C[C@@H](C)C(=O)[C@H](C)[C@@H](O)[C@]1(C)O | 1129 |  | 2 µg/mL
COc1cccc(CSc2nc3ccccc3[nH]2)c1 | MY330/88 |  | 32 µM
CC[C@H]1OC(=O)[C@H](C)[C@@H](O[C@H]2C[C@@](C)(OC)[C@@H](O)[C@H](C)O2)[C@H](C)[C@@H](O[C@@H]2O[C@H](C)C[C@H](N(C)C)[C@H]2O)[C@](C)(O)C[C@@H](C)C(=O)[C@H](C)[C@@H](O)[C@]1(C)O | 3220 |  | 32 µg/mL
CCC1CCN(c2c(F)cc3c(=O)c(C(=O)O)cn(C4CC4)c3c2F)C1 | 1915112 |  | 4 µg/mL
NCC[C@H](O)C(=O)N[C@@H]1C[C@H](N)[C@@H](O[C@H]2O[C@H](CN)[C@@H](O)[C@H](O)[C@H]2O)[C@H](O)[C@H]1O[C@H]1O[C@H](CO)[C@@H](O)[C@H](N)[C@H]1O | 3213 |  | 64 µg/mL
NCC[C@H](O)C(=O)N[C@@H]1C[C@H](N)[C@@H](O[C@H]2O[C@H](CN)[C@@H](O)[C@H](O)[C@H]2O)[C@H](O)[C@H]1O[C@H]1O[C@H](CO)[C@@H](O)[C@H](N)[C@H]1O | 101 |  | 4 µg/mL
CN1CC2CCC1CN2c1c(F)cc2c(=O)c(C(=O)O)cn(C3CC3)c2c1F | 1760694 |  | 8 µg/mL
CO[C@H]1/C=C/O[C@@]2(C)Oc3c(C)c(O)c4c(O)c(c(/C=N/N5CCN(C/C=C/c6ccccc6)CC5)c(O)c4c3C2=O)NC(=O)/C(C)=C\C=C\[C@H](C)[C@H](O)[C@@H](C)[C@@H](O)[C@@H](C)[C@H](OC(C)=O)[C@@H]1C | CH2 |  | 0.25 µg/mL
NCC[C@H](O)C(=O)N[C@@H]1C[C@H](N)[C@@H](O[C@H]2O[C@H](CN)[C@@H](O)[C@H](O)[C@H]2O)[C@H](O)[C@H]1O[C@H]1O[C@H](CO)[C@@H](O)[C@H](N)[C@H]1O | 1008 |  | 2.5 µg/mL
NNC(=O)c1ccncc1 | 13011 (serotype 16) |  | 0.4 µg/mL
Cc1ccc(CSc2nc3ccccc3[nH]2)cc1 | MY330/88 |  | 32 µM
NCC[C@H](O)C(=O)N[C@@H]1C[C@H](N)[C@@H](O[C@H]2O[C@H](CN)[C@@H](O)[C@H](O)[C@H]2O)[C@H](O)[C@H]1O[C@H]1O[C@H](CO)[C@@H](O)[C@H](N)[C@H]1O | 1295/HIV- |  | 2 µg/mL
CC[C@@H](CO)NCCN[C@@H](CC)CO | 3211 |  | 32 µg/mL
C[C@@H]1CN(c2c(F)c(N)c3c(=O)c(C(=O)O)cn(C4CC4)c3c2F)C[C@H](C)N1 | 21 | broth dilution | 0.5 µg/mL
CC1COc2c(N3CCN(C)CC3)c(F)cc3c(=O)c(C(=O)O)cn1c23 | CIPT 14031002 |  | 10 µg/mL
NC[C@H]1O[C@H](O[C@H]2[C@H](O[C@@H]3O[C@H](CO)[C@@H](O)[C@H]3O)[C@@H](O)[C@H](N)C[C@@H]2N)[C@H](N)[C@@H](O)[C@@H]1O | TMC 1406 |  | 0.19 µg/mL
COC1CCN(c2c(F)cc3c(=O)c(C(=O)O)cn(C4CC4)c3c2F)C1 | 1760694 |  | 4 µg/mL
CC(C)CSc1nc2ccccc2[nH]1 | MY330/88 |  | 125 µM
CC[C@@H](CO)NCCN[C@@H](CC)CO | 595-5 |  | 1.9 µg/mL
N#Cc1cccc(CSc2nc3ccccc3[nH]2)c1 | MY330/88 |  | >62 µM
O=C(O)c1cn(C2CC2)c2c(F)c(N3CCN4CCC3C4)c(F)cc2c1=O | PI12/39 |  | 4 µg/mL
CN[C@@H]1[C@H](O[C@H]2[C@H](O[C@H]3[C@H](O)[C@@H](O)[C@H](N=C(N)N)[C@@H](O)[C@@H]3N=C(N)N)O[C@@H](C)[C@]2(O)C=O)O[C@@H](CO)[C@H](O)[C@H]1O | 13034 (serotype 18) |  | 50 µg/mL
Cc1cccc(CSc2nc3ccccc3[nH]2)c1 | MY330/88 |  | 62 µM
CNC1CCN(c2c(F)cc3c(=O)c(C(=O)O)cn(C4CC4)c3c2F)C1 | 1915112 |  | 4 µg/mL

Repeating the first 5 entries:

smiles | strain | method | value
Clc1cccc(CSc2nc3ccccc3[nH]2)c1 | MY330/88 |  | >62 µM
NC[C@H]1O[C@H](O[C@H]2[C@H](O)[C@@H](O[C@H]3O[C@H](CO)[C@@H](O)[C@H](N)[C@H]3O)[C@H](N)C[C@@H]2N)[C@H](O)[C@@H](O)[C@@H]1O | Isolate C-21 |  | 200 µg/mL
NC[C@H]1O[C@H](O[C@H]2[C@H](O)[C@@H](O[C@H]3O[C@H](CO)[C@@H](O)[C@H](N)[C@H]3O)[C@H](N)C[C@@H]2N)[C@H](O)[C@@H](O)[C@@H]1O | TMC 1403 |  | 0.39 µg/mL
CCn1cc(C(=O)O)c(=O)c2cc(F)c(N3CCN(C)CC3)cc21 | CIPT 14031001 |  | 10 µg/mL
CC(C)N=c1cc2n(-c3ccc(Cl)cc3)c3ccccc3nc-2cc1Nc1ccc(Cl)cc1 | 1110/HIV- |  | 0.12 µg/mL